Data from patent US8216595B2 (priority 2007, dated 2012).

System: HA antigen
Assay: Example 2: isotypes of induced HA specific antibody (IgG1, IgG2a)
Assay type: in vivo, C57BL/6 female mice
Details: 1.8 μg split vaccine antigen + 20 μg adjuvant, i.m. two times; ratio calculated from isotype antibody titers

Molecule	IgG2a/IgG1 (%)
CCCCCCCCCCCCCCCC(=O)N[C@@H](CSC[C@@H](COC(=O)CCCCCCCCCCCCCCC)OC(=O)CCCCCCCCCCCCCCC)C(=O)N[C@@H](CO)C(=O)N[C@@H](CCCCN)C(=O)N[C@@H](CCCCN)C(=O)N[C@@H](CCCCN)C(=O)N[C@@H](CCCCN)C(=O)O (racemic) [Pam3Cys-SKKKK, N-palmitoyl-S-[2,3-bis(palmitoyloxy)-(2RS)-propyl]-[R]-cystein-SKKKK]	7.59%
polyinosinic:polycytidylic acid	6.17%
